# HIV-1 5' UTR: DMS reactivities by position

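Randomly mutated transcripts starting with one, two or three G (1G, 2G, 3G), capped or uncapped, were folded for 30 min at 37 °C. High salt was 300 mM KCl and 5 mM MgCl2, low salt 40 mM KCl and 0.1 mM MgCl2; monomer and dimer were parted on a native gel. Each band was probed in the gel with DMS (170 mM, 15 min, 37 °C), with ethanol as control, and sequenced.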

Sequence of the HIV-1 NL4-3 5' RNA, positions 1 to 437, as numbered in the source:
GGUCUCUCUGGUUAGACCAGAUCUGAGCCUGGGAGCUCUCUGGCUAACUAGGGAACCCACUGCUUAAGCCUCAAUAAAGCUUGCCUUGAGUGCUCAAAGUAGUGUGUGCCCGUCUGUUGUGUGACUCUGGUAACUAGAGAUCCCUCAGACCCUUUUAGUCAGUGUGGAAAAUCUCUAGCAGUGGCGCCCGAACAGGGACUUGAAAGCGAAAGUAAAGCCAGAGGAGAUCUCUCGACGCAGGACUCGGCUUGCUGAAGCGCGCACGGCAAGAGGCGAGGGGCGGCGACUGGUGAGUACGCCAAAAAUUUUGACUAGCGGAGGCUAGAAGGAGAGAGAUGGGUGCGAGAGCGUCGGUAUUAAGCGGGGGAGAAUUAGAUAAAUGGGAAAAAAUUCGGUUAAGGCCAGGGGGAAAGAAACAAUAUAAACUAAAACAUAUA

Scale: normalised reactivity, A and C only; low values point to paired or protected bases, higher values to unpaired ones.
One numbering serves 1G, 2G and 3G.
A position is written with its base.

{"position": "A124", "domain": "none", "3G uncapped high-salt dimer": 1.11, "1G capped low-salt monomer": 0.99, "2G capped low-salt monomer": 1.12}
{"position": "A67", "domain": "PolyA", "3G uncapped high-salt dimer": 0.66, "1G capped low-salt monomer": 0.60, "2G capped low-salt monomer": 0.73}
{"position": "A428", "domain": "none", "3G uncapped high-salt dimer": 0.10, "1G capped low-salt monomer": 0.10, "2G capped low-salt monomer": 0.11}
{"position": "C175", "domain": "PBS", "3G uncapped high-salt dimer": 0.03, "1G capped low-salt monomer": 0.04, "2G capped low-salt monomer": 0.03}
{"position": "C403", "domain": "none", "3G uncapped high-salt dimer": 0.03, "1G capped low-salt monomer": 0.04, "2G capped low-salt monomer": 0.03}
{"position": "A46", "domain": "TAR", "3G uncapped high-salt dimer": 0.03, "1G capped low-salt monomer": 0.06, "2G capped low-salt monomer": 0.04}
{"position": "A192", "domain": "PBS", "3G uncapped high-salt dimer": 0.81, "1G capped low-salt monomer": 0.77, "2G capped low-salt monomer": 0.84}
{"position": "A431", "domain": "none", "3G uncapped high-salt dimer": 0.51, "1G capped low-salt monomer": 0.61, "2G capped low-salt monomer": 0.56}
{"position": "C143", "domain": "PBS", "3G uncapped high-salt dimer": 0.03, "1G capped low-salt monomer": 0.04, "2G capped low-salt monomer": 0.03}
{"position": "A421", "domain": "none", "3G uncapped high-salt dimer": 0.35, "1G capped low-salt monomer": 0.38, "2G capped low-salt monomer": 0.36}
{"position": "C109", "domain": "U5", "3G uncapped high-salt dimer": 0.09, "1G capped low-salt monomer": 0.15, "2G capped low-salt monomer": 0.16}
{"position": "C57", "domain": "TAR", "3G uncapped high-salt dimer": 0.03, "1G capped low-salt monomer": 0.57, "2G capped low-salt monomer": 0.03}
{"position": "C287", "domain": "SL2", "3G uncapped high-salt dimer": 0.40, "1G capped low-salt monomer": 0.28, "2G capped low-salt monomer": 0.29}
{"position": "A77", "domain": "PolyA", "3G uncapped high-salt dimer": 0.63, "1G capped low-salt monomer": 0.71, "2G capped low-salt monomer": 0.78}
{"position": "A360", "domain": "none", "3G uncapped high-salt dimer": 0.50, "1G capped low-salt monomer": 0.35, "2G capped low-salt monomer": 0.46}
{"position": "C110", "domain": "U5", "3G uncapped high-salt dimer": 0.08, "1G capped low-salt monomer": 0.15, "2G capped low-salt monomer": 0.16}
{"position": "A387", "domain": "none", "3G uncapped high-salt dimer": 0.22, "1G capped low-salt monomer": 0.23, "2G capped low-salt monomer": 0.23}
{"position": "C322", "domain": "SL3", "3G uncapped high-salt dimer": 0.03, "1G capped low-salt monomer": 0.04, "2G capped low-salt monomer": 0.03}
{"position": "A269", "domain": "SL1", "3G uncapped high-salt dimer": 0.23, "1G capped low-salt monomer": 0.50, "2G capped low-salt monomer": 0.44}
{"position": "A319", "domain": "SL3", "3G uncapped high-salt dimer": 0.80, "1G capped low-salt monomer": 0.88, "2G capped low-salt monomer": 0.82}
{"position": "A209", "domain": "PBS", "3G uncapped high-salt dimer": 0.37, "1G capped low-salt monomer": 0.46, "2G capped low-salt monomer": 0.46}
{"position": "C258", "domain": "SL1", "3G uncapped high-salt dimer": 0.23, "1G capped low-salt monomer": 0.36, "2G capped low-salt monomer": 0.35}
{"position": "A415", "domain": "none", "3G uncapped high-salt dimer": 0.19, "1G capped low-salt monomer": 0.21, "2G capped low-salt monomer": 0.21}
{"position": "C144", "domain": "PBS", "3G uncapped high-salt dimer": 0.03, "1G capped low-salt monomer": 0.04, "2G capped low-salt monomer": 0.03}
{"position": "A301", "domain": "none", "3G uncapped high-salt dimer": 0.23, "1G capped low-salt monomer": 0.27, "2G capped low-salt monomer": 0.22}
{"position": "A376", "domain": "none", "3G uncapped high-salt dimer": 0.69, "1G capped low-salt monomer": 0.73, "2G capped low-salt monomer": 0.70}
{"position": "A216", "domain": "PBS", "3G uncapped high-salt dimer": 0.70, "1G capped low-salt monomer": 0.49, "2G capped low-salt monomer": 0.53}
{"position": "C264", "domain": "SL1", "3G uncapped high-salt dimer": 0.21, "1G capped low-salt monomer": 0.45, "2G capped low-salt monomer": 0.46}
{"position": "C281", "domain": "none", "3G uncapped high-salt dimer": 0.34, "1G capped low-salt monomer": 0.43, "2G capped low-salt monomer": 0.40}

The opening 2 entries, copied out:

| position | domain | 3G uncapped high-salt dimer | 1G capped low-salt monomer | 2G capped low-salt monomer |
|---|---|---|---|---|
| A124 | none | 1.11 | 0.99 | 1.12 |
| A67 | PolyA | 0.66 | 0.60 | 0.73 |

The measurements come from Ye et al. 2022 (doi:10.1038/s41594-022-00746-2).